Results on 1 compound are retold here after BindingDB's records for doi:10.1016/j.bmcl.2020.127004 (Merck, 2020).

Structures are written as SMILES.

The experiment is described as follows: Non-nucleoside inhibition of NS5B polymerase S365A mutant in HCV genotype 1a by Taqman probe based RT-PCR analysis. (Real-time PCR tracks product formation cycle by cycle.)

As a reminder, the EC50 is the concentration that produces a half-maximal response. Compound `CNC(=O)c1c(-c2ccc(F)cc2)oc2cc(N(C)S(C)(=O)=O)c(-c3ccc4c(n3)-c3cc5c(F)cccc5n3CO4)cc12` [US9265773, 2] yielded an EC50 of 1 nM.
